Measurements as given in PubChem BioAssay AID602139 (NMMLSC, 2011).
The list shows a part of the results, in another mix than the full data. Active and inactive are the calls of the source. Rule as the data show it: active = inhibition above about 32%; inactive = the rest.

Test system: Botulinum neurotoxin type A light chain protease (Clostridium botulinum A str. ATCC 3502)
Test: inhibition of botulinum toxin A LC protease – biochemical, flow cytometry, cherry pick 1, confirmation (AID 602139)
Settings: multiplex microsphere protease assay, at 10 µM, active compounds read high

In the case of `CN1CCC(Nc2ccc(F)c(Cl)c2)CC1`, the inhibition is reported as inactive: -1.4%.
